Taken from: PubChem BioAssay AID504761 (Drosophila RNAi Screening Center, 2011)

- Aim: 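Insect host genes that dengue virus relies on to spread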 (primary screen)
- Cells: D.Mel-2 cells from Drosophila
- Reagent: long dsRNA against Drosophila genes
- Treatment: infection with dengue virus type 2; dose and infection time not stated
- Measurement: 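Cells stained for dengue envelope protein and imaged; percent of infected cells per well on duplicate plates, ranked by infection, with stained nuclei counted for cell number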
- Reading the numbers: infection score: higher = more virus-infected cells
- Active means: 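Low infection ranks in the two replicates (chance level up to 0.065) followed by a retest with a 1.5-fold or larger significant decrease, p below 0.05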
- Calls: active = confirmed: knock-down lowers infection; inactive = not picked or not confirmed
The screen tested about 22,000 reagents; below is an unselected part of those that have a named target and a result. Over the whole deposit, 116 (0.52%) are marked active. 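Calls depend on retest data that are not deposited; infection was ranked per plate without normalising between plates; the unit of the infection score is not given.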 Further read-outs or replicates are left out here. Not stated in the record: the amount of reagent, the time to read-out.

gene knocked down | DRSC id | infection score, replicate 1 | outcome
CG13297 | DRSC09971 | 0.88 | inactive
CG32271 | DRSC08198 | 1.9 | inactive
CG32271 | DRSC27093 | 7.06 | inactive
Est-P (Esterase P) | DRSC11163 | 1.3 | inactive
Smug | DRSC15762 | 2.79 | inactive
CG17343 | DRSC02606 | 1.43 | inactive
CG17343 | DRSC22807 | 1.29 | inactive
CG17343 | DRSC28706 | 13.3 | inactive
Atg14 (Autophagy-related 14) | DRSC14421 | 1.15 | inactive
Atg14 (Autophagy-related 14) | DRSC27166 | 2.3 | inactive
CG32855 | DRSC13131 | 1.88 | inactive
CG15564 | DRSC15102 | 0.55 | active
CG5506 | DRSC10511 | 0.97 | inactive
Mtr3 | DRSC10953 | 7.52 | inactive
Mtr3 | DRSC26956 | 5.66 | inactive
CG42331 | DRSC14633 | 11.5 | inactive
CG42331 | DRSC16126 | 9.52 | inactive
CG42331 | DRSC25930 | 0.66 | inactive
CG7149 | DRSC03016 | 4.57 | inactive
CG8569 | DRSC07214 | 25.1 | inactive
ox (oxen) | DRSC07520 | 3.21 | inactive
HisT (Histamine transporter) | DRSC05051 | 0.03 | inactive
HisT (Histamine transporter) | DRSC06405 | 16.8 | inactive
